34 substances from patent publication US20210340181A1, “Alpha(v)beta(6) integrin-binding peptides and methods of use thereof” (published 2021) can be followed below.

One assay has as its target αvβ3 integrin (purified) (UniProt P06756). Nature of the assay: competitive ELISA vs BtLAP. For orientation: In an ELISA, binding on a coated surface is turned into a signal by an enzyme label.
The target of assay [1] is αvβ8 integrin (purified) (UniProt P06756). Nature of the assay: competitive ELISA vs BtLAP.
Assay [2] has as its target αvβ6 integrin on DX3puroβ6 (αvβ6+) cells (human) (UniProt P06756). Description: 18F peptide cell binding, αvβ6+ over αvβ6- cells.
Assay [3] deals with αvβ6 integrin (purified) (UniProt P06756).
The target is the same in assay [4]. This is another data set of the same source.
For assay [5], the target named is αvβ8 integrin (purified) (UniProt P06756). Nature of the assay: competitive ELISA vs BtLAP (text; the table prints >10).
Assay [6] concerns the target αvβ6 integrin (purified) (UniProt P06756). The source holds these as a separate data set.
The target is the same in assay [7]. The source holds these as a separate data set.
Assay [8] concerns the target αvβ6 integrin on DX3puroβ6 (αvβ6+) cells (human) (UniProt P06756). Description: 18F peptide binding to DX3puroβ6 (αvβ6+) cells, 1 h, gamma counting.
Assay [9] has as its target αvβ6 integrin (purified) (UniProt P06756). The source holds these as a separate data set.
The target of assay [10] is αvβ6 integrin on DX3puroβ6 (αvβ6+) cells (human) (UniProt P06756). Description: 18F peptide binding to DX3puroβ6 (αvβ6+) cells.

pIC50: −log10 of the molar value. Read-outs that look alike come from different tables or passages of the source.

The pIC50 is the negative decadic logarithm of the IC50, by convention in mol/L. In the case of “Peptide-conjugate P1Q, FB-… (peptide; modification not given)”, the pIC50 with αvβ3 integrin (purified) and with αvβ8 integrin (purified) [1] was under 4.00 each time. Consider “Peptide-conjugate SFLAP3-15mer, FB-… (peptide; modification not given)”, for which the DX3puroβ6 (αvβ6+)/DX3puro (αvβ6-) selectivity ratio in assay [2] amounted to 3.9. On to Peptide-conjugate T1-a, FB-PEG2-…-PEG28, for which the pIC50 in the assay with αvβ6 integrin (purified) [3] is 7.33. In the assay with αvβ6 integrin (purified) [4], this substance registered a fold drop in affinity against T1 of 24 fold. For “Peptide-conjugate T1, FB-…-PEG28 (peptide; modification not given)”, the pIC50 with αvβ3 integrin (purified) and in the assay with αvβ8 integrin (purified) [1] was under 4.00 each time. On to “Peptide-conjugate T1-a, FB-PEG2-…-PEG28 (peptide; modification not given)”, for which the pIC50 with αvβ3 integrin (purified) and with αvβ8 integrin (purified) [1] was under 4.00 throughout.

In the case of “Peptide-conjugate T1-V1R, FB-…-PEG28 (peptide; modification not given)”, the figures for the pIC50 in the assay with αvβ3 integrin (purified), with αvβ8 integrin (purified) [1] and with αvβ8 integrin (purified) [5] were under 4.00, under 5.00 and under 4.00, respectively. Consider Peptide-conjugate T1-c, FB-PEG8-…-PEG28, for which the pIC50 in the assay with αvβ6 integrin (purified) [6] was 7.00. The substance also showed a fold drop in affinity against T1 with αvβ6 integrin (purified) [4] of 50 fold. Regarding Peptide-conjugate P1Q, FB-…, the pIC50 with αvβ6 integrin (purified) [7] was 7.92. “Peptide-conjugate T1-f, FB-Amb-…-PEG28 (peptide; modification not given)”: the pIC50 with αvβ3 integrin (purified) and in the assay with αvβ8 integrin (purified) [1] was under 4.00 in each case. Consider Peptide-conjugate T1-f, FB-Amb-…-PEG28, for which the pIC50 in the assay with αvβ6 integrin (purified) [6] was 8.15. Take P1Q-Scrb, FB-…: the pIC50 in the assay with αvβ6 integrin (purified) [7] was 7.85. As for “Peptide-conjugate P1K-a, …(FB)KVART (peptide; modification not given)”, in the assay with αvβ8 integrin (purified) [1], the pIC50 was under 4.00.

For “Peptide-conjugate T1-e, FB-PEG28-…-PEG28 (peptide; modification not given)”, the pIC50 with αvβ3 integrin (purified) and in the assay with αvβ8 integrin (purified) [1] was under 4.00 in each case. With Peptide-conjugate P1K-a, …(FB)KVART, the pIC50 with αvβ6 integrin (purified) [7] is 7.68. Take “Peptide-conjugate T1-d, FB-PEG12-…-PEG28 (peptide; modification not given)”: the pIC50 with αvβ3 integrin (purified) and in the assay with αvβ8 integrin (purified) [1] was under 4.00 in each case. As for “Peptide-conjugate RTD-14mer, FB-… (peptide; modification not given)”, in assay [2], the DX3puroβ6 (αvβ6+)/DX3puro (αvβ6-) selectivity ratio came to 9.1. “Peptide-conjugate T1-d, FB-PEG12-…-PEG28”: the pIC50 with αvβ6 integrin (purified) [6] was 7.72. Besides, the fold drop in affinity against T1 with αvβ6 integrin (purified) [4] is 9 fold. Regarding “Peptide-conjugate T1-c, FB-PEG8-…-PEG28 (peptide; modification not given)”, the pIC50 with αvβ3 integrin (purified) and in the assay with αvβ8 integrin (purified) [1] was under 4.00 each time.

On to “Peptide-conjugate P3Q, FB-… (peptide; modification not given)”, for which, in assay [2], the DX3puroβ6 (αvβ6+)/DX3puro (αvβ6-) selectivity ratio is 11.8. The same substance yielded a % binding to cells in assay [8] of 20%.

Take Peptide-conjugate P1K-b, FB-…: the pIC50 with αvβ6 integrin (purified) [7] was 8.00. Consider “P1Q-Scrb, FB-… (peptide; modification not given)”, for which the figures for the pIC50 in the assay with αvβ3 integrin (purified) and with αvβ8 integrin (purified) [1] were under 4.00 and 5.54, respectively.

In the case of Peptide-conjugate T1-V1R, FB-…-PEG28, the pIC50 with αvβ6 integrin (purified) [3] is 8.00.

As to “Peptide-conjugate P1K-b, FB-… (peptide; modification not given)”, the negative logarithm of the IC50 (pIC50) with αvβ3 integrin (purified) and with αvβ8 integrin (purified) [1] was under 4.00 in each case. In the assay with αvβ6 integrin (purified) [3], Peptide-conjugate T1-b, FB-PEG4-…-PEG28 showed a pIC50 of 7.60. The substance further gave a fold drop in affinity against T1 with αvβ6 integrin (purified) [4] of 13 fold. In turn, Peptide-conjugate P3Q, FB-… showed a pIC50 with αvβ6 integrin (purified) [6] of 8.40.

For the substance Peptide-conjugate RTD-14mer, FB-…, in the assay with αvβ6 integrin (purified) [9], the pIC50 is 9.40. Regarding “Peptide-conjugate T1-b, FB-PEG4-…-PEG28 (peptide; modification not given)”, the pIC50 with αvβ3 integrin (purified) and in the assay with αvβ8 integrin (purified) [1] was under 4.00 throughout. With Peptide-conjugate SFLAP3-15mer, FB-…, the pIC50 with αvβ6 integrin (purified) [9] was 8.89. With “Peptide-conjugate KL3Q, FB-… (peptide; modification not given)”, the fold increase in cell binding against N-[^18F]KL3 in assay [10] was determined as 2 fold. Moreover, the DX3puroβ6 (αvβ6+)/DX3puro (αvβ6-) selectivity ratio in assay [2] amounted to 1.9. Further, in [8], the % binding to cells worked out at 1.3%. The substance “Peptide-conjugate T1-e, FB-PEG28-…-PEG28” showed a pIC50 with αvβ6 integrin (purified) [6] of 7.11. This substance yielded a fold drop in affinity against T1 with αvβ6 integrin (purified) [4] of 39 fold. “Peptide-conjugate T1-g, FB-PEG28-Amb-…-PEG28” showed a pIC50 in the assay with αvβ6 integrin (purified) [6] of 7.43. Substance Peptide-conjugate T1, FB-…-PEG28 gave a pIC50 with αvβ6 integrin (purified) [3] of 8.70. On to “Peptide-conjugate T1-g, FB-PEG28-Amb-…-PEG28 (peptide; modification not given)”, for which the pIC50 with αvβ3 integrin (purified) and with αvβ8 integrin (purified) [1] was under 4.00 throughout. Peptide-conjugate KL3Q, FB-… had a pIC50 in the assay with αvβ6 integrin (purified) [6] of 8.06.
